# Results taken from patent US8153609B2 (priority 2004, dated 2012).
# Test system: CD4+ T cells of MAIDS-infected C57BL6 mice
# [1] = after stimulation with staphylococcal enterotoxin SEB
structure (smiles),measurement,setting,value
Nc1ncnc2c1nc(Br)n2[C@@H]1O[C@@H]2CO[P@@](=O)(S)O[C@H]2[C@H]1O,IFN-γ secretion of CD4+ T cells from the infected mice,[1],slightly increasing
same,TNF-α secretion of CD4+ T cells from the infected mice after stimulation with SEB,[1],reducing
same,proliferative responses to anti-CD3 mAb,cells of treated infected mice,increased
same,significance (p) of effect on SEB stimulated TNF-α secretion by CD4 T cells,"infected mice, intracytoplasmic staining, FIG. 1",0.0012
same,TNF-α secretion by CD4 T cells of infected mice,"treatment of infected mice, FIG. 1",dramatically reduced
